Measured values from several laboratories, pooled; numbers as filed in NIAID ChemDB.

Common to all: enzyme or target tests; species: Hepatitis C virus; protein: NS5B polymerase

Inhibition is in % at the dose shown (toxicity tests: loss of growth or viability). An empty or dashed field is not shown. Lines come from different laboratories, so protocols vary. Two numbers with a dash give a range or band. ICn: concentration for n% inhibition.

{"structure": "O=C(O)c1ccc2c(c1)nc(-c1ccc(OCc3cc(C(=O)N4CCC(O)CC4)ccc3-c3ccc(Cl)cc3)cc1F)n2C1CCCCC1", "endpoint": "Ki", "value": "0.12 µM"}
{"structure": "CCSc1nc(Nc2ccc(N(CC)CC)cc2)cc(N2CCN(C(=O)c3ncccn3)CC2)n1", "endpoint": "inhibition", "tested at": "0.1 µg/mL", "value": "30–55%"}
{"structure": "CCC[C@@H](NC(=O)c1ccc2c(c1)nc(-c1ccoc1)n2C1CCCCC1)C(=O)Nc1ccc(/C=C/C(=O)O)cc1", "endpoint": "IC50", "value": "0.5–5 µM"}
{"structure": "CCSc1nc(Nc2ccc(N(CC)CC)cc2)cc(N2CCN(C(=O)c3ncc(C)cn3)CC2)n1", "endpoint": "inhibition", "tested at": "0.1 µg/mL", "value": "30–55%"}
{"structure": "O=C(NC(Cc1c[nH]c2ccc(O)cc12)C(=O)O)c1ccc2c(c1)nc(-c1ccc3nc(-c4ccccc4)cnc3c1)n2C1CCCCC1", "endpoint": "inhibition", "tested at": "33 µM", "value": "98.59%"}
{"structure": "CCCCOC(=O)c1ccc(CCCC)nc1N(C)c1ccc(N2CCOCC2)cc1", "endpoint": "inhibition", "tested at": "0.1 µg/mL", "value": "30–55%"}
{"structure": "CC(=O)Nc1ccc(-c2nc3cc(C(=O)N[C@H](C(=O)O)c4c[nH]c5ccc(O)cc45)ccc3n2C2CCCCC2)cc1", "endpoint": "IC50", "value": "1–5 µM"}
{"structure": "CCCCOC(=O)c1ccc(CC)nc1Nc1ccc(N2CCOCC2)cc1", "endpoint": "inhibition", "tested at": "0.1 µg/mL", "value": "30–55%"}
{"structure": "CC(NC(=O)c1ccc2c(c1)nc(-c1ccoc1)n2C1CCCCC1)C(=O)Nc1cccc(C(=O)O)c1", "endpoint": "IC50", "value": "0.5–5 µM"}
{"structure": "CNc1nc(C[C@H](Cc2ccc(OCC(=O)O)cc2)NC(=O)c2ccc3c(c2)nc(-c2ccoc2)n3C2CCCCC2)cs1", "endpoint": "IC50", "value": "1–5 µM"}
{"structure": "O=C(O)/C=C/c1ccc(NC(=O)C2(NC(=O)c3ccc4c(c3)nc(-c3ccoc3)n4C3CCC3)CCCC2)cc1", "endpoint": "IC50", "value": "0.5–5 µM"}
{"structure": "O=C(N[C@H](C(=O)O)c1c[nH]c2ccc(O)cc12)c1ccc2c(c1)nc(/C=C/c1ccc([N+](=O)[O-])cc1)n2C1CCCCC1", "endpoint": "IC50", "value": "1–5 µM"}
{"structure": "CN1CCC(NC(=O)c2ccc3c(c2)nc(-c2ccoc2)n3C2CCCCC2)(C(=O)Nc2ccc3c(c2)cc(C(=O)O)n3C)CC1", "endpoint": "IC50", "value": "<0.5 µM"}
{"structure": "CCCCOC(=O)c1ccc(CCCC)nc1N(CCC)c1ccc(N2CCOCC2)cc1", "endpoint": "inhibition", "tested at": "0.1 µg/mL", "value": "30–55%"}
{"structure": "O=C(O)/C=C/c1ccc(NC(=O)C2(NC(=O)c3ccc4c(c3)nc(-c3ccco3)n4C3CCCCC3)CCCC2)cc1", "endpoint": "IC50", "value": "<0.5 µM"}
{"structure": "CCC[C@]1(CC(=O)O)OCCc2c1[nH]c1c(C)ccc(C#N)c21", "strain": "J4 genotype 1B", "endpoint": "IC50", "value": "0.4 µM"}
{"structure": "Cc1cc(-c2nc3cc(C(=O)N[C@H](C(=O)O)c4c[nH]c5ccc(O)cc45)ccc3n2C2CCCCC2)n[nH]1", "endpoint": "IC50", "value": "1–5 µM"}
{"structure": "Cn1c(C(=O)O)cc2cc(NC(=O)C3(NC(=O)c4ccc5c(c4)nc(-c4ccoc4)n5C4CCCCC4)CCCC3)ccc21", "endpoint": "IC50", "value": "<0.5 µM"}
{"structure": "Cc1nc(C[C@H](Cc2ccc(OCC(=O)O)cc2)NC(=O)c2ccc3c(c2)nc(-c2ccoc2)n3C2CCCCC2)cs1", "endpoint": "IC50", "value": "1–5 µM"}
{"structure": "CCSc1nc(Nc2ccc(N(CC)CC)cc2)cc(N2CCN(C(=O)c3ccnc(C)c3)CC2)n1", "endpoint": "inhibition", "tested at": "0.1 µg/mL", "value": "30–55%"}
{"structure": "O=C(O)/C=C/c1ccc(NC(=O)C2(NC(=O)c3ccc4c(c3)nc(-c3ccccn3)n4C3CCCC3)CCCC2)cc1", "endpoint": "IC50", "value": "0.5–5 µM"}

Repeating the first 2 entries:

structure | strain | endpoint | tested at | value
O=C(O)c1ccc2c(c1)nc(-c1ccc(OCc3cc(C(=O)N4CCC(O)CC4)ccc3-c3ccc(Cl)cc3)cc1F)n2C1CCCCC1 | - | Ki | - | 0.12 µM
CCSc1nc(Nc2ccc(N(CC)CC)cc2)cc(N2CCN(C(=O)c3ncccn3)CC2)n1 | - | inhibition | 0.1 µg/mL | 30–55%